Pooled drug test results. Numbers come from NIAID ChemDB, via PubChem.

All rows: cytotoxicity tests; cell line: HEL; read-out: CC50

CCn: concentration that lowers growth or viability of the cells by n%. Neighbouring rows are from separate reports. Blank or dashed fields: not listed here.

CCCCCCCC/C=C/CCCCCCCC(=O)OCC(CO)OCn1cnc2c(=O)[nH]c(N)nc21 ; result: 135 µM
CC1(C)[C@@H](CCO)C[C@H]1n1cnc2c(N)ncnc21 ; result: 40 µg/mL
COC(=O)C(c1cccc(Oc2ccccc2)c1)S(=O)(=O)c1cccc[n+]1[O-] ; result: 9.6 µg/mL
COc1cc([C@@H]2c3cc4c(cc3[C@@H](O)[C@H]3COC(=O)[C@]23F)OCO4)cc(OC)c1O ; result: 8.2 µM
Cc1ccc(C)c(CS(=O)(=O)c2cccc[n+]2[O-])c1C ; result: 11 µg/mL
Cc1ccc(-c2cc3cn([C@H]4C[C@H](O)[C@@H](CO)O4)c(=O)nc3o2)cc1 ; result: >200 µM
CCCCCCCCCCCCc1cc2cn([C@H]3C[C@H](O)[C@@H](CO)O3)c(=O)nc2o1 ; result: >200 µM
Cc1ccn2c(CSCCc3ccccc3)cnc2c1 ; result: >50 µg/mL
CCCCc1ccc(-c2cc3cn(C4CC[C@@H](CO)O4)c(=O)nc3o2)cc1 ; result: >200 µM
COc1ccc(C=NNC(=O)COc2cccc3ccccc23)cc1OC ; result: 52.6 µg/mL
Nc1nc2c(ncn2[C@@H]2C[C@H](CO)[C@H]2CO)c(=O)[nH]1 ; result: 10 µg/mL
Cc1ccc(C)c(CSc2c(Cl)ccc[n+]2[O-])c1 ; result: 42 µg/mL
CCCCCCCCc1cc2cn([C@H]3C[C@H](O)[C@@H](CO)O3)c(=O)nc2[nH]1 ; result: >50 µM
CCCCCCCCc1ccc(-c2cc3cn([C@H]4C[C@H](O)[C@@H](CO)O4)c(=O)nc3o2)cc1 ; result: 200 µM
CCCCCCCCCCc1cc2cn([C@H]3C[C@H](O)[C@@H](CO)O3)c(=O)nc2o1 ; result: >50 µM
O=S(=O)(Cc1ccc(Cl)cc1)c1cccc[n+]1[O-] ; result: 25 µg/mL
Nc1nc2c(ncn2[C@H]2CCC[C@H]2CO)c(=O)[nH]1 ; result: >50 µg/mL
CCCCCCCc1ccc(-c2cc3cn(C4CC[C@@H](CO)O4)c(=O)nc3o2)cc1 ; result: >200 µM
O=S(=O)(Cc1ccccc1I)c1cccc[n+]1[O-] ; result: 25 µg/mL
Nc1ncc2ncn([C@H]3CCC[C@H]3CO)c2n1 ; result: >50 µg/mL
Cc1ccc(C)n2c(CSCc3ccccc3)cnc12 ; result: 3 µg/mL
Cc1nc2ccccn2c1NC(=S)Nc1ccccc1 ; result: >50 µg/mL
COc1cc([C@@H]2c3cc4c(cc3[C@@H](Nc3ccc(C#N)cc3)[C@H]3COC(=O)[C@]23F)OCO4)cc(OC)c1O ; result: 8.43 µM
CN1c2ccccc2C(C)(C)C12C=Cc1cc([N+](=O)[O-])ccc1O2 ; result: 16.2 µM
CCCCCCCc1cc2cn([C@H]3C[C@H](O)[C@@H](CO)O3)c(=O)nc2o1 ; result: >50 µM
Nc1nc2c(ncn2COC2COP(=O)(O)OC2)c(=O)[nH]1 ; result: 2 µg/mL
CN(C)C1(C23CC4CC(CC(C4)C2)C3)CCCC1 ; result: >50 µg/mL
Nc1nc2c(ncn2COCCO)c(=O)[nH]1 ; result: >844 µM
Nc1ncnc2c1ncn2[C@@H]1O[C@H](CO)[C@@H](O)[C@@H]1O ; result: 6 µg/mL
Cc1ccn2c(C(SCCc3ccccc3)SCCc3ccccc3)cnc2c1 ; result: 36 µM
Nc1nc2c(ncn2COC(CO)CO)c(=O)[nH]1 ; result: 100 µg/mL
O=c1[nH]c(=O)n([C@H]2C[C@H](O)[C@@H](CO)O2)cc1F ; result: 0.4 µg/mL
O=c1[nH]c(=O)n([C@@H]2O[C@H](CO)[C@@H](O)[C@@H]2O)cc1-c1cccs1 ; result: 200 µg/mL
Cc1nc2ccccn2c1NC(=O)Nc1ccccc1 ; result: >50 µg/mL
O=C(COc1cccc2ccccc12)NN=Cc1cccc(O)c1 ; result: 62.7 µg/mL
CC(O)CC#CC#Cc1cn([C@H]2C[C@H](O)[C@@H](CO)O2)c(=O)[nH]c1=O ; result: 9.5 µM
COc1ccc(OC)c(CS(=O)(=O)c2cccc[n+]2[O-])c1 ; result: 60 µg/mL
C[C@H](NC(=O)[C@]1(Cc2ccccc2)CCN1C(=O)OCc1ccccc1)C(=O)N[C@@H](Cc1ccccc1)C(=O)N[C@@H](C)N ; result: >100 µM
Cn1cc(C(=O)O)c(=O)c2cc(N)c(N3CCN(c4nc5ccccc5o4)CC3)cc21 ; result: 0.15 µg/mL
O=C(CCC1CCCCC1)N(O)c1ccc(Cl)cc1 ; result: 4.7 µg/mL
Clc1ccc(CSc2ccccn2)cc1 ; result: 3.5 µg/mL
CC(=NNC(=O)COc1cccc2ccccc12)c1ccccc1Br ; result: 16.2 µg/mL
CCCCCCCCCCCCc1cc2cn([C@H]3C[C@H](O)[C@@H](CO)O3)c(=O)nc2o1 ; result: >200 µM
Cc1ccc(C)c(CS(=O)(=O)c2ncccc2O)c1 ; result: >20 µg/mL
CCC/C=C\c1nc2c(N)ncnc2n1[C@H]1C[C@H](O)[C@@H](CO)O1 ; result: 40 µg/mL
C=CCCCCc1cc2cn([C@H]3C[C@H](O)[C@@H](CO)O3)c(=O)nc2o1 ; result: >200 µM
Nc1nc2c(ncn2COC(CO)CO)c(=O)[nH]1 ; result: 154 µg/mL
Cc1ccc(N)cc1C(C)S(=O)(=O)c1cccc[n+]1[O-] ; result: >50 µg/mL
CCCCCCCCCCCCc1cc2cn([C@H]3C[C@H](O)[C@@H](CO)O3)c(=O)nc2o1 ; result: >200 µM
Cc1ccc([N+](=O)[O-])cc1CS(=O)(=O)c1cccc[n+]1[O-] ; result: 57 µg/mL
Nc1nc(=O)n([C@H]2C[C@H](O)[C@@H](CO)O2)cc1-c1cccs1 ; result: 45 µg/mL
CCCCCCCCCCCc1cc2cn([C@H]3C[C@H](O)[C@@H](CO)O3)c(=O)nc2o1 ; result: >200 µM
O=c1[nH]c(=O)n([C@H]2C[C@H](O)[C@@H](CO)O2)cc1C#CC#CCC1CCCC1 ; result: 89 µM
Cc1ccn2c(C3OCCS3)cnc2c1 ; result: >266 µM
C#Cc1nc2c(N)ncnc2n1[C@H]1C[C@H](O)[C@@H](CO)O1 ; result: 2 µg/mL
Cc1ccc(C)c(C(CO)S(=O)(=O)c2ccccn2)c1 ; result: >20 µg/mL
CCCCCc1nc2c(N)ncnc2n1[C@H]1C[C@H](O)[C@@H](CO)O1 ; result: 30 µg/mL
[O-][n+]1c(Cl)cccc1SCc1ccccc1 ; result: 48 µg/mL
CCCCCCCCc1cc2cn([C@H]3C[C@H](O)[C@@H](CO)O3)c(=O)nc2s1 ; result: 53 µM
Nc1nc2c(ncn2[C@@H]2O[C@H](CO)[C@H]2CO)c(=O)[nH]1 ; result: 189 µg/mL
CCCCCCCCc1cc2cn([C@H]3C[C@H](O)[C@@H](CO)O3)c(=O)nc2o1 ; result: >50 µM
Cc1cccn2c(C3OCCO3)cnc12 ; result: >291 µM
CCCCCCCc1cc2cn([C@H]3C[C@H](O)[C@@H](CO)O3)c(=O)nc2o1 ; result: >50 µM
O=C(COc1cccc2ccccc12)NN=Cc1ccc([N+](=O)[O-])cc1 ; result: 14.2 µg/mL
CCOc1ccccc1CS(=O)c1cccc[n+]1[O-] ; result: 69 µg/mL
CC[C@@H](O)C1=C[C@@H](n2cnc3c(N)ncnc32)[C@H](O)[C@@H]1O ; result: >50 µg/mL
COc1cc(CS(=O)c2cccc[n+]2[O-])cc(OC)c1OC ; result: 40 µg/mL
CCCCCCc1ccc(-c2cc3cn(C4CC[C@@H](CO)O4)c(=O)nc3o2)cc1 ; result: >200 µM
Cn1cc(C(=O)O)c(=O)c2cc(N)c(N3CCN(c4cccc(C(F)(F)F)c4)CC3)cc21 ; result: 1.8 µg/mL
O=c1[nH]c(=O)n([C@H]2C[C@H](O)[C@@H](CO)O2)cc1C#CC#Cc1ccc([N+](=O)[O-])cc1 ; result: 89 µM
COc1cc([C@@H]2c3cc4c(cc3[C@@H](Nc3ccc([N+](=O)[O-])cc3)[C@H]3COC(=O)[C@]23F)OCO4)cc(OC)c1O ; result: 6.09 µM
CCCc1nc2c(N)ncnc2n1[C@H]1C[C@H](O)[C@@H](CO)O1 ; result: 170 µg/mL
CCN1CCCC1C12CC3CC(CC(C3)C1)C2 ; result: >50 µg/mL
CN1c2ccc([N+](=O)[O-])cc2C(C)(C)C12C=Cc1ccccc1O2 ; result: 141.5 µM
NC1(C23CC4CC(CC(C4)C2)C3)CCCC1 ; result: >50 µg/mL
CC(C)c1ccc(C(C)C)c(CS(=O)(=O)c2cccc[n+]2[O-])c1 ; result: 6.4 µg/mL
Cc1ccn2c(CSCC(F)(F)F)cnc2c1 ; result: >50 µg/mL
COc1ccc2c(c1)C=CC1(O2)N(C)c2ccccc2C1(C)C ; result: <6.5 µM
Cc1nc2ccccn2c1CSCc1ccccc1 ; result: 33 µg/mL
Nc1nc2c(ncn2COCCO)c(=O)[nH]1 ; result: 250 µg/mL
CCCCCCCCc1cc2cn([C@H]3C[C@H](O)[C@@H](CO)O3)c(=O)nc2o1 ; result: >200 µM
CCCc1ccc(C#CC#Cc2cn([C@H]3C[C@H](O)[C@@H](CO)O3)c(=O)[nH]c2=O)cc1 ; result: 52 µM
CN(C)CC1CCC(C23CC4CC(CC(C4)C2)C3)[C@@H]1c1ccccc1 ; result: >50 µg/mL
COc1ccc(C=NNC(=O)COc2cccc3ccccc23)cc1 ; result: 100 µg/mL
Cc1ccc[n+]([O-])c1S(=O)(=O)Cc1c(Cl)cccc1Cl ; result: 70 µg/mL
CCOc1ccc(-c2cc3cn([C@H]4C[C@H](O)[C@@H](CO)O4)c(=O)nc3o2)cc1 ; result: >200 µM
O=c1[nH]c(=O)n([C@H]2C[C@H](O)[C@@H](CO)O2)cc1-c1cccs1 ; result: >200 µg/mL
O=C(C1CCCCC1)N(O)c1ccc(Cl)cc1 ; result: 28 µg/mL
Cc1ccc(C)c(CS(=O)(=O)c2ccc(Cl)c[n+]2[O-])c1 ; result: 4.9 µg/mL
CCCCCCCCCc1cc2cn([C@H]3C[C@H](O)[C@@H](CO)O3)c(=O)nc2o1 ; result: >200 µM
CCCOc1ccc(-c2cc3cn([C@H]4C[C@H](O)[C@@H](CO)O4)c(=O)nc3o2)cc1 ; result: >200 µM
Nc1ccn(C[C@@H](CO)OCP(=O)(O)O)c(=O)n1 ; result: 236.3 µM
Nc1nc(N)c2ncn(C[C@H]3CCC[C@H]3CO)c2n1 ; result: >50 µg/mL
Cn1cc(C(=O)O)c(=O)c2cc(N)c(N3CCN(c4nccs4)CC3)cc21 ; result: 4.9 µg/mL
O=c1[nH]c(=O)n([C@H]2C[C@H](O)[C@@H](CO)O2)cc1/C=C/Br ; result: 0.2 µg/mL
Cc1cccn2c(C3OCCS3)cnc12 ; result: >266 µM
CC1(C)[C@@H](CCO)C[C@H]1n1nnc2c(=O)[nH]c(N)nc21 ; result: >50 µg/mL
Nc1nc2c(ncn2C[C@]2(CO)C[C@H]2CO)c(=O)[nH]1 ; result: 37 µg/mL
COc1ccc2c(c1)OC1(C=C2)N(C)c2ccc(Cl)cc2C1(C)C ; result: 32.1 µM
C=C[C@H](O)C1=C[C@@H](n2cnc3c(N)ncnc32)[C@H](O)[C@@H]1O ; result: >50 µg/mL
Cc1ccn2c(CSCc3ccc(Cl)cc3)cnc2c1 ; result: 19 µg/mL
Nc1nc(=O)n([C@@H]2O[C@H](CO)[C@@H](O)[C@@H]2F)cc1I ; result: 10 µg/mL
O=c1[nH]c(=O)n([C@H]2C[C@H](O)[C@@H](CO)O2)cc1/C=C/Br ; result: >400 µM
COc1cc(C=NNC(=O)COc2cccc3ccccc23)cc(OC)c1O ; result: 52.8 µg/mL
O=c1[nH]c(=O)n([C@H]2C[C@H](O)[C@@H](CO)O2)cc1-c1ccc(Cl)s1 ; result: >50 µg/mL
Nc1nc2c(ncn2COC(CO)CO)c(=O)[nH]1 ; result: 230 µM
c1ccc(COc2cccnc2SCc2ccccc2)cc1 ; result: 5.9 µg/mL
CC1(C)[C@@H](CCO)C[C@H]1n1nnc2c(=O)[nH]cnc21 ; result: 37 µg/mL
CC(=O)OC(C(C)C(C)C(C)(C)O)C1OC12C(O)CC1C3CCC4CC(=O)CCC4C3CCC12CO ; method: MTT ; result: >50 µg/mL
CCCCCCOc1ccc(-c2cc3cn([C@H]4C[C@H](O)[C@@H](CO)O4)c(=O)nc3o2)cc1 ; result: >200 µM
CCCCCCc1cc2cn([C@H]3C[C@H](O)[C@@H](CO)O3)c(=O)nc2o1 ; result: >200 µM

A second listing of 16 rows from above:

compound	method	result
O=C(COc1cccc2ccccc12)NN=Cc1cccc(O)c1		62.7 µg/mL
Nc1nc(=O)n([C@H]2C[C@H](O)[C@@H](CO)O2)cc1-c1cccs1		45 µg/mL
CN1c2ccccc2C(C)(C)C12C=Cc1cc([N+](=O)[O-])ccc1O2		16.2 µM
CCC/C=C\c1nc2c(N)ncnc2n1[C@H]1C[C@H](O)[C@@H](CO)O1		40 µg/mL
Cc1nc2ccccn2c1NC(=O)Nc1ccccc1		>50 µg/mL
Clc1ccc(CSc2ccccn2)cc1		3.5 µg/mL
O=C(C1CCCCC1)N(O)c1ccc(Cl)cc1		28 µg/mL
Nc1nc2c(ncn2COC(CO)CO)c(=O)[nH]1		100 µg/mL
CCCCCCCCc1cc2cn([C@H]3C[C@H](O)[C@@H](CO)O3)c(=O)nc2[nH]1		>50 µM
Cn1cc(C(=O)O)c(=O)c2cc(N)c(N3CCN(c4nccs4)CC3)cc21		4.9 µg/mL
CCCCCCCc1cc2cn([C@H]3C[C@H](O)[C@@H](CO)O3)c(=O)nc2o1		>50 µM
O=S(=O)(Cc1ccccc1I)c1cccc[n+]1[O-]		25 µg/mL
O=S(=O)(Cc1ccc(Cl)cc1)c1cccc[n+]1[O-]		25 µg/mL
CCCCCCCc1cc2cn([C@H]3C[C@H](O)[C@@H](CO)O3)c(=O)nc2o1		>50 µM
Cc1cccn2c(C3OCCO3)cnc12		>291 µM
Nc1nc2c(ncn2[C@@H]2O[C@H](CO)[C@H]2CO)c(=O)[nH]1		189 µg/mL